# Experimental data reported in paper PMC10366084, “Two point mutations in protocadherin-1 disrupt hantavirus recognition and afford protection against lethal infection” (Nature Communications, 2023).
# B1: sEC1-4(T141C/G337C) (with C432S) (domain or fragment)
# chain: TRVVYKVPEEQPPNTLIGSLAADYGFPDVGHLYKLEVGAPYLRVDGKTGDIFTTETSIDREGLRECQNQLPGDPCILEFEVSICDLVQNGSPRLLEGQIEVQDINDNTPNFASPVITLAIPENTNIGSLFPIPLASDRDAGPNGVASYELQAGPEAQELFGLQVAEDQEEKQPQLIVMGNLDRERWDSYDLTIKVQDGGSPPRASSALLRVTVLDTNDNAPKFERPSYEAELSENSPIGHSVIQVKANDSDQGANAEIEYTFHQAPEVVRRLLRLDRNTCLITVQGPVDREDLSTLRFSVLAKDRGTNPKSARAQVVVTVKDMNDNAPTIEIRGIGLVTHQDGMANISEDVAEETAVALVQVSDRDEGENAAVTSVVAGDVPFQLRQASETGSDSKKKYFLQTTTPLDYEKVKDYTIEIVAVDSGNPPLSSTNSLKVQVVDVNDNA
# modifications: intersubunit disulfide between the engineered cysteines at 141 and 337
# Target: the molecule itself
protein,measurement,value
B1,stoichiometry N,2
